Anti-infective test results gathered from many reports (values: NIAID ChemDB through PubChem).

Common to all: growth or infection tests; agent: Herpes simplex virus 1; endpoint: EC50

Two numbers with a dash give a range or band.

structure,read by,cell line,strain,result
O=C(NNCc1cccc(O)c1O)c1ccccc1O,PCR,HEP-2,KOS,1.1 µM
c1c[nH]c2cc3ncnc3cc2c1,MTT,VERO,KOS,>100 µM
O=C(NCc1ccc(Cl)cc1)c1c[nH]c2ccc(CCCO)cc2c1=O,plaque count,,F,12 µM
Nc1nc2c(ncn2COC(CO)CO)c(=O)[nH]1,cytopathic effect / ELISA,HEL,R35,0.4 µM
N#Cc1cccc(-c2cc3c(-c4ccnc(NC5CCCC5)n4)ccc(NC4CCCC4)n3n2)c1,antigen / hybridisation,VERO 76,SC16,0.28 µM
CCCCCCCC/C=C\CCCCCCCOCCCOP(=O)(O)CO[C@H](CO)Cn1cnc2c(N)ncnc21,hybridisation,MRC-5,,<0.0025 µM
Brc1ccc(-c2cc3c(-c4ccnc(NC5CCC5)n4)ccc(NC4CCC4)n3n2)cc1,antigen / hybridisation,VERO 76,SC16,2.82 µM
Fc1ccc(-c2nn3c(NC4CCCC4)ncnc3c2-c2ccnc(Nc3nc4ccccc4s3)n2)cc1,hybridisation,,,>40 µM
Clc1ccc(-c2cc3c(-c4ccnc(NC5CCCC5)n4)ccc(NC4CCCC4)n3n2)cc1,antigen / hybridisation,VERO 76,SC16,0.86 µM
Nc1nc2c(ncn2CCCC(CO)CO)c(=O)[nH]1,cytopathic effect / ELISA,HEL,R35,0.7 µM
Nc1nc2c(ncn2COC(CO)CO)c(=O)[nH]1,PCR,,03-2787,0.2 µM
CCOC(=O)C1=CN(COCCO)S(=O)(=O)NC1=O,,E6SM,B206 (TK-),>400 µg/mL
CCCCC(C)(C)[C@H](O)/C=C/[C@H]1C=CC(=O)[C@@H]1CCCCCCC(=O)O,hybridisation,VERO,H129,5.6 µg/mL
COc1cccc2c1C(=O)c1c(O)c3c(c(O)c1C2=O)C[C@@](O)(C(C)=O)C[C@@H]3O[C@H]1C[C@H](N(C)C)[C@H](O)[C@H](C)O1,virus yield,VERO,,>1 µM
CC1=CC(=O)N(c2ccccc2)S(=O)(=O)N1COCCO,,E6SM,McIntyre,>400 µg/mL
Nc1nc2c(ncn2[C@@H]2C[C@H](CO)[C@H]2CO)c(=O)[nH]1,hybridisation,WI-38,KOS,0.008–0.08 µM
NC(N)=N/N=C1/C/C(=N\N=C(N)N)c2cc3ccccc3cc21,virus yield,VERO,13,1.5 µM
COCCNC1=[N+]=CCc2c(-c3ccnc(NC4CCCC4)n3)c(-c3cccc(Cl)c3)nn21,hybridisation,,,0.3 µM
Nc1nc2c(ncn2CCC(O)CO)c(=O)[nH]1,cytopathic effect / ELISA,HEL,R35,4.3 µM
NC(=O)c1cccc(-c2cc3c(-c4ccnc(NC5CCCC5)n4)ccc(NC4CCCC4)n3n2)c1,antigen / hybridisation,VERO 76,SC16,1.67 µM
O=C(O)P(=O)(O)O,plaque count,RK-13,PFA-resistant,573 µM
Nc1nc2c(ncn2COCCO)c(=O)[nH]1,hybridisation,WI-38,KOS,0.04–0.08 µM
Cc1csc(Nc2nccc(-c3c(-c4ccc(F)cc4)nn4c(NC5CCCC5)ncnc34)n2)n1,hybridisation,,,>40 µM
O=c1ccnc2c(Cl)c3[nH][nH]nc3cc12,MTT,VERO,KOS,>100 µM
Nc1nc2c(ncn2C[C@H](CO)CCO)c(=O)[nH]1,cytopathic effect / ELISA,HEL,R35,>100 µM
CC(=O)OCCOCN1C=C(C#N)C(N)=NS1(=O)=O,,E6SM,VMW1837 (TK-),>400 µg/mL
c1ccc(-c2ccc(-c3nc4cc5ncccc5cc4[nH]3)cc2)cc1,MTT,VERO,KOS,80 µM

Repeating the final 2 entries:

structure,read by,cell line,strain,result
CC(=O)OCCOCN1C=C(C#N)C(N)=NS1(=O)=O,,E6SM,VMW1837 (TK-),>400 µg/mL
c1ccc(-c2ccc(-c3nc4cc5ncccc5cc4[nH]3)cc2)cc1,MTT,VERO,KOS,80 µM

ECn is the concentration giving n% inhibition of infection, replication or growth. Blank or dashed fields: not listed here. Neighbouring rows are from separate reports.